Anti-infective test results gathered from many reports (values: NIAID ChemDB through PubChem).

Common to all: tests in culture; organism: Tacaribe virus

ECn is the concentration giving n% inhibition of infection, replication or growth. Blank or dashed fields: not listed here. Lines come from different laboratories, so protocols vary.

| compound | strain | cells | method | read-out | result |
|---|---|---|---|---|---|
| Nc1ncnc2c1ncn2[C@@H]1C=C(CO)[C@@H](O)[C@H]1O | - | VERO | cytopathic effect | EC50 | 1.5 µg/mL |
| Cc1cn([C@@H]2O[C@H](CO)[C@](O)(C(F)(F)F)[C@H]2O)c(=O)[nH]c1=O | - | VERO | cytopathic effect | EC50 | >50 µg/mL |
| Nc1ccn([C@@H]2C=C(CO)[C@@H](O)[C@H]2O)c(=O)n1 | - | VERO | cytopathic effect | EC50 | 0.03 µg/mL |
| Nc1nccc2c1ncn2[C@@H]1C[C@H](CO)[C@@H](O)[C@H]1O | - | - | - | MIC | 2 µg/mL |
| NC(N)=Nc1ccccc1SSc1ccccc1N=C(N)N | 11573 | VERO | virus yield | EC50 | 3.6 µM |
| Nc1ccn(CCCC(O)CF)c(=O)n1 | - | VERO | cytopathic effect | EC50 | >200 µg/mL |
| O=S1(=O)C[C@H](O)[C@H](O)CS1 | 11573 | VERO | virus yield | EC50 | 42.6 µM |
| C=C[C@@H](O)C1=C[C@@H](n2cnc3c(N)ncnc32)[C@H](O)[C@@H]1O | - | VERO | cytopathic effect | EC50 | >50 µg/mL |
| Nc1nccc2c1ncn2[C@@H]1C=C(CO)[C@@H](O)[C@H]1O | - | - | - | MIC | 1 µg/mL |
| Nc1ncnc2c1ncn2C(CF)CCCO | - | VERO | cytopathic effect | EC50 | >50 µg/mL |
| O=S1(=O)C[C@H](O)[C@@H](O)CS1 | 11573 | VERO | virus yield | EC50 | 11.4 µM |
| Nc1ncnc2c1ncn2[C@@H]1CC[C@@H](O)[C@H]1O | - | - | - | MIC | 0.01 µg/mL |
| C=C[C@H](O)C1=C[C@@H](n2cnc3c(N)ncnc32)[C@H](O)[C@@H]1O | - | VERO | cytopathic effect | EC50 | >50 µg/mL |
| C[C@@]1(O)[C@@H](CO)O[C@@H](n2cnc3c(N)ncnc32)[C@@H]1O | - | VERO | cytopathic effect | EC50 | 10 µg/mL |